Laboratory results: US20220168221A1 (priority 2020, published 2022)
Where two headings read alike, the source gives them in different places.

How the values were obtained:
[1] = Mouse weights, drinking and clinical observation in Study 1
Coccidioides = conditions: reported and anticipated; cited from earlier work
Coccidioides posadasii = format: in vivo
[2] = test system: Coccidioides posadasii strain Silveira (ATCC 28868); format: in vivo; conditions: about 200 arthroconidia IV, 200 mg/kg/day (and higher)

Structure (SMILES) | % gain (weight) ([1]; PO 600 mg/kg/day, 600 mg/kg/day) | % gain (weight) ([1]; PO 2000 mg/kg/day, 2000 mg/kg/day) | expected MEC (minimum effective concentration) (Coccidioides) | improvement of disease (Coccidioides posadasii; 8 mg/kg/day DiW) | survival (Coccidioides posadasii; 30.6 mg/kg/day) | inhibition of fungal proliferation (Coccidioides posadasii; 408 mg/kg/day (target was 600)) | losses (survival curve) (Coccidioides posadasii; 8.4, 30.6 and 134 mg/kg/day) | therapeutic benefit (Coccidioides posadasii; about 1000 arthroconidia, 20 mg/kg/day) | reduction of disease (Coccidioides posadasii; about 1000 arthroconidia, 150 mg/kg/day) | reduction of disease (Coccidioides posadasii; about 1000 arthroconidia, 400 mg/kg/day) | efficacy compared with FCZ 100 mg/kg/day (Coccidioides posadasii; all levels of nikZ) | survival (Coccidioides posadasii; doses higher than 134 mg/kg/day) | reduction in disseminated disease (Coccidioides posadasii; most severe challenge, roughly 78 mg/kg/day in a mouse, 5 days of therapy) | protection from residual infection [2] | survival (Coccidioides posadasii; 100 mg/kg/day, FIG. 3E) | protection (Coccidioides posadasii; 100 mg/kg/day, qd)
C[C@@H]([C@H](N)C(=O)N[C@H](C(=O)O)[C@H]1O[C@@H](n2ccc(=O)[nH]c2=O)[C@H](O)[C@@H]1O)[C@H](O)c1ccc(O)cn1 [nikZ, nikkomycin Z] | 9.4% | 14.4% | 62.5 ng/mL | some improvement | 80% | pretty much maximal inhibition of fungal proliferation | decreasing losses | showed therapeutic benefit | ~75% | 90% | more effective than this reference dose of FCZ | all higher doses survived | about 50% | almost completely protected | – | –
OC(Cn1cncn1)(Cn1cncn1)c1ccc(F)cc1F [FCZ, fluconazole, reference compound] | – | – | – | – | – | – | – | – | – | – | – | – | – | – | survived to the end of the brief study period | only slight protection
